ChEMBL document CHEMBL3751732 (Bioorg Med Chem Lett, 2016)

By UniProt entry, the sequences of proteins in these tests, tags left out. Where a name states a change or a piece, a line headed by the entry shows the natural chain unless it says otherwise.
UniProt Q9H3N8: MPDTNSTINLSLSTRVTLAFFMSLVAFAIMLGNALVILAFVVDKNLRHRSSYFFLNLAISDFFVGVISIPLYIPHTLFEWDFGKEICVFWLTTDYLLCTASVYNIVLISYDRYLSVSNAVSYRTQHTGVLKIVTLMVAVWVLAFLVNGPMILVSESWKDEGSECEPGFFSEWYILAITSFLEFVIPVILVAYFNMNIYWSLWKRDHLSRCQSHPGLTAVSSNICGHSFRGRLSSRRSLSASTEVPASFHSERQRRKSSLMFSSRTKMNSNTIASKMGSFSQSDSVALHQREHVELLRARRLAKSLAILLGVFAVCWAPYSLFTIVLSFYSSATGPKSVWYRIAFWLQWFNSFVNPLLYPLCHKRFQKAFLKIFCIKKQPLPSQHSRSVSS

Target: Histamine H4 receptor (Homo sapiens, UniProt Q9H3N8)
Assay: Displacement of [3H]histamine from human histamine 4 receptor expressed in Sf9 cell membranes by liquid scintillation counting

SMILES: CN1CCN(c2nc(NCc3cccs3)c3cc(Cl)ccc3n2)CC1
- Ki: 42.7 nM
